Key:
[1] = target: single chain NS4A-NS3 protease (native) fused to the yeast Gal4 DBD (pVVS602) (yeast; hepatitis C virus genotype 1b), P04386; test: cell-based or functional assay
[2] = target: single chain NS4A-NS3 full length protein (native) fused to the yeast Gal4 DBD (pVVS772) (yeast; hepatitis C virus genotype 1b), P26662; test: cell-based or functional assay

| Binder | luciferase activity over background without the 3D sensor-VP16AD (times background) [1] | luciferase activity over background without the 3D sensor-VP16AD (times background) [2] |
| --- | --- | --- |
| WRPYYTVLCALASWH (modifications not checked) [3D-sensor V7-62 fused to the VP16 activation domain] | 80 |  |
| PSNHRQSTRSTPWLW (modifications not checked) [3D-sensor H5-34 fused to the VP16 activation domain] |  | 42 |
